PubChem BioAssay AID1259414 – Drosophila RNAi Screening Center | 2018
Aim: 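Host factors increasing or decreasing Wolbachia levels in cultured fly cells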 (primary screen). Cells: Drosophila JW18 cells infected with Wolbachia. Knock-down reagent: long dsRNA against Drosophila genes, 0.25 µg dsRNA per well of a 384-well plate. Duration: 5 days. Challenge: cells persistently infected with Wolbachia before knock-down; no added drug. Detection: 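Automated imaging of bacterial rRNA staining divided by host cell count, reported as plate-normalised robust z-score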. Scale: Wolbachia per cell robust z: higher = more Wolbachia per host cell than the plate typical. Active means: 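Active if absolute robust z reaches 1.5 in two or more of three replicates, leaving out multi- or no-target dsRNAs, genes unexpressed in JW18 and A1 wells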.
In all, the deposit lists about 24,000 reagents; shown is an unselected part of those with a known target gene and a result. Over the whole deposit, about 1,210 (5%) were called active. 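Inactive calls also include excluded dsRNAs with several or no targets, genes unexpressed in JW18, and well A1, regardless of score.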 Unmarked entries are inactive. Reagents against one gene are numbered here. Names joined by + are all predicted targets of the reagent. Reagent sequences are not shown.

gene | reagent no. | Wolbachia per cell robust z, rep 1 | Wolbachia per cell robust z, rep 2 | Wolbachia per cell robust z, rep 3
ACC | 1 | 1.5 (active) | 3.86 | 2.86
ACC | 2 | 2.03 (active) | 1.07 | 2.25
ACXD | 1 | 0.924 | 0.818 | 0.243
ACXD | 2 | -0.381 | -0.626 | -8.32
CG10073 | 1 | -1.24 | -0.608 | -0.261
caly | 1 | 0.824 | 0.0732 | 0.951
Cdc45 | 1 | -0.437 | 1.07 | 0.907
Cdc45 | 2 | -0.684 | -0.474 | -0.99
flfl | 1 | -2.83 (active) | 1.04 | -5.51
CG14949 | 1 | 1.03 | -0.183 | 0.233
CG11811 | 1 | 0.408 | -4.95 | -0.204
Mitf | 1 | 0.489 | 0.523 | -0.723
Mitf | 2 | -4.39 | -1.18 | -0.607
Mitf | 3 | 0.243 | 0.364 | 0.971
CG13829 | 1 | 0.562 | 0.79 | 1.11
Cht11 | 1 | -4.74 (active) | -2.02 | 0.34
Cht11 | 2 | 0.406 | -1.19 | -0.507
Grl62a | 1 | 0.0208 | 0.196 | -0.00303
Pex12 | 1 | -0.903 | 0.874 | 0.39
Pex12 | 2 | 2.28 (active) | 1.09 | 2.03
SMSr | 1 | -0.0147 | 0.0683 | -1.98
SMSr | 2 | -0.439 | -1.4 | -0.288
CG15818 | 1 | 0.537 | 0.289 | 1.23
CG15818 | 2 | 0.672 | 0.23 | -0.769
vri | 1 | 1.28 | 0.229 | 0.837
vri | 2 | -0.706 | 0.324 | 0.544
Ada1-2 + Ada1-1 | 1 | -1.44 | -1.54 | -1.55
Ada1-2 + Ada1-1 | 2 | -4.17 | -2.28 | -2.76
Ada1-2 + Ada1-1 | 3 | 0.532 | 0.181 | -0.208

4 consecutive entries from above, quoted:
gene | reagent no. | Wolbachia per cell robust z, rep 1 | Wolbachia per cell robust z, rep 2 | Wolbachia per cell robust z, rep 3
Grl62a | 1 | 0.0208 | 0.196 | -0.00303
Pex12 | 1 | -0.903 | 0.874 | 0.39
Pex12 | 2 | 2.28 (active) | 1.09 | 2.03
SMSr | 1 | -0.0147 | 0.0683 | -1.98
